Molecules are shown by their SMILES. The entries are a selection whose mix differs from that of the whole data set. Inconclusive results are not listed. Activity calls are given as the source filed them. The call rests on the fitted dose curve.
On the % scale 0 is the no-effect control and ±100 the full control effect.

This experiment is described as follows: qHTS Assay for Anthrax Lethal Toxin Internalization. Further: nearly all actives have a fitted effect of over 50% in size. The note with it: Cells, FRET ratio (460/530); at 40 µM (top of the series) unless noted.
Regarding `NC1CCCCC1.NP(=O)(O)N(CCCl)CCCl`, the activity change, negative = inhibition is inactive: -0.826% [at 8 µM].
For `N#CC1(Nc2ccccc2)CCN(CCc2ccccc2)CC1`, the activity change, negative = inhibition was inactive: -18.7%.
Consider `ClCCOP(OCCCl)OCCCl`, for which the activity change, negative = inhibition was inactive: -6.07%.
In the case of `N/C(=N\O)c1c(N)no[n+]1[O-]` it was inactive: 11.2%; in that of `O=C(O)C1(Nc2ccccc2)CCN(Cc2ccccc2)CC1`, inactive: -5.9% [at 8 µM]; in that of `CCOc1ncccc1C(=O)NCC1(N2CCOCC2)CCCCC1`, inactive: 11.5%.
In the case of `Fc1ccccc1NC1CCN(Cc2ccccc2)CC1` it was inactive: -18.9%.

These data come from PubChem BioAssay AID912 (National Center for Advancing Translational Sciences (NCATS), 2007).
